Pooled drug test results. Numbers come from NIAID ChemDB, via PubChem.

All rows: tests in culture; organism: HIV-1; cells: PBMC; endpoint: fold resistance

Blank or dashed fields: not listed here. Fold resistance has wild type as its base. Rows are shuffled and stem from different studies.

structure	strain or isolate	changes	read by	result
Nc1nc(NC2CC2)c2ncn([C@H]3C=C[C@@H](CO)C3)c2n1	52534-2 NRTI resistant recombinant	RT-M41L T69ins L74V M184V L210W T215Y	RT activity	22
Nc1ccn([C@@H]2CS[C@H](CO)O2)c(=O)n1	Recombinant	RT-V75I F77L F116Y Q151M	p24	0.05
Nc1ccn([C@H]2CC[C@@H](CO)O2)c(=O)n1	BCF07	RT-A98G V106I Y181C	-	0.4
CC(C)CN(C[C@@H](O)[C@H](Cc1ccccc1)NC(=O)O[C@H]1CCOC1)S(=O)(=O)c1ccc(N)cc1	Clinical isolate	PR-L10R N37D M46I I62V L63P A71V G73S V77I V82T L90M I93L	p24	6
Cc1cn([C@H]2C[C@H](N=[N+]=[N-])[C@@H](CO)O2)c(=O)[nH]c1=O	BCF11	RT-A98G K103R	-	1
CC(C)c1nc(CN(C)C(=O)N[C@H](C(=O)N[C@@H](Cc2ccccc2)C[C@H](O)[C@H](Cc2ccccc2)NC(=O)OCc2cncs2)C(C)C)cs1	Clinical isolate	PR-L10I V11I T12E I15V L19I R41K M46L L63 A71T V82A L90M	p24	>23
CC(C)OC(=O)OCOP(=O)(CO[C@H](C)Cn1cnc2c(N)ncnc21)OCOC(=O)OC(C)C	1617-1 NRTI resistant recombinant	RT-T69K K70G V75I F77L F116Y Q151M M184V	RT activity	2.4
S=C(NCCc1cccs1)Nc1ccc(Br)cn1	NRTI resistant (RT Y181C) A17	RT-Y181C	p24	1.3
Nc1ccn([C@@H]2CS[C@H](CO)O2)c(=O)n1	52534-2 NRTI resistant recombinant	RT-M41L T69ins L74V M184V L210W T215Y	RT activity	>300
CC(C)(C)NC(=O)[C@@H]1C[C@@H]2CCCC[C@@H]2CN1C[C@@H](O)[C@H](Cc1ccccc1)NC(=O)[C@H](CC(N)=O)NC(=O)c1ccc2ccccc2n1	Clinical isolate	PR-L10I I15V E35D N37E K45R I54V L63P A71V V82T L90M I93L C95F	p24	3.6
O=c1[nH]cnc2c1ncn2[C@H]1CC[C@@H](CO)O1	56252-1 NRTI resistant recombinant	RT-T69K K70G V75I F77L F116Y Q151M M184V	RT activity	28
CC(C)=CCN1Cc2cc(Cl)cc3[nH]c(=S)n(c23)C[C@@H]1C	VAU (RT-A98G)	RT-A98G	-	4
CC(C)Nc1cccnc1N1CCN(C(=O)c2cc3cc(NS(C)(=O)=O)ccc3[nH]2)CC1	NRTI resistant (RT L74V M41L V106A T215Y) MDR	RT-L74V M41L V106A T215Y	p24	44.4
COc1ccc(S(=O)(=O)N(CC(C)C)C[C@@H](O)[C@H](Cc2ccccc2)NC(=O)O[C@H]2CO[C@H]3OCC[C@H]32)cc1	Clinical isolate	PR-L10I I15V K20R M36I M46L I54V K55R I62V L63P K70Q V82A L89M	p24	2
Cc1cn([C@H]2C=C[C@@H](CO)O2)c(=O)[nH]c1=O	Recombinant	RT-V75I F77L F116Y Q151M	p24	0.335

For reference, 2 entries again:

structure,strain or isolate,changes,read by,result
CC(C)CN(C[C@@H](O)[C@H](Cc1ccccc1)NC(=O)O[C@H]1CCOC1)S(=O)(=O)c1ccc(N)cc1,Clinical isolate,PR-L10R N37D M46I I62V L63P A71V G73S V77I V82T L90M I93L,p24,6
O=c1[nH]cnc2c1ncn2[C@H]1CC[C@@H](CO)O1,56252-1 NRTI resistant recombinant,RT-T69K K70G V75I F77L F116Y Q151M M184V,RT activity,28